Laboratory results: publication PMC8815882, “Screening the pandemic response box identified benzimidazole carbamates, Olorofim and ravuconazole as promising drug candidates for the treatment of eumycetoma” (PLoS Neglected Tropical Diseases, 2022)
Some compounds may have been tested in ways that are not shown here.

Test system: M. mycetomatis genome strain MM55
Assay: CLSI M38-A2 based in vitro susceptibility screening (XTT or resazurin), growth at fixed concentration
Format: cell-based, Madurella mycetomatis

Compound: CCCn1c(=O)c2c(nc(Cc3ccccc3)n2CCN(CC)CCO)n(CCc2ccc(N)cc2)c1=O
- Percentage survival at 25um, 25 uM mean (25 uM, mean of three, M. mycetomatis MM55): 74.0995%
- Percentage survival at 25um, 25 um A (25 uM, replicate A, M. mycetomatis MM55): 94.6375%
- Percentage survival at 25um, 25 uM B (25 uM, replicate B, M. mycetomatis MM55): 54.6912%
- Percentage survival at 25um, 25 uM C (25 uM, replicate C, M. mycetomatis MM55): 72.9699%
- Percentage survival at 100um, 100 uM mean (100 uM, mean of three, M. mycetomatis MM55): 51.2803%
- Percentage survival at 100um, 100 uM A (first replicate column) (100 uM, replicate 1, M. mycetomatis MM55): 0.9033%
- Percentage survival at 100um, 100 uM A (second replicate column) (100 uM, replicate 2, M. mycetomatis MM55): 68.7428%
- Percentage survival at 100um, 100 uM A (third replicate column) (100 uM, replicate 3, M. mycetomatis MM55): 84.195%
